The results in this text go back to patent US20060287319A1, “Anti-viral compositions comprising heterocyclic substituted phenyl furans and related compounds” (priority 2005, published 2006).

One series concerns HIV-1 IIIB. The settings on record: selectivity index. How it is done:
Assessment of anti-HIV-1 infectivity. The inhibitory activity of compounds on infection by laboratory-adapted HIV-1 strains was determined as previously described (34). […] For the time-of-addition assay, compounds were added at various time post-infection. Then the culture supernatants were removed and fresh media were added. On the fourth day post-infection, 100 μl of culture supernatants were collected from each well, mixed with equal volumes of 5% Triton X-100 and assayed for p24 antigen, which was quantitated by ELISA (23). Briefly, the wells of polystyrene plates (Immulon 1B, Dynex Technology, Chantilly, Va.) were coated with HIV immunoglobulin (HIVIG), which was prepared from plasma of HIV-seropositive donors with high neutralizing titers against HIV-1IIIB as previously described (36) in 0.085 M carbonate-bicarbonate buffer (pH 9.6) at 4° C. overnight, followed by washes with PBS-T buffer (0.01M PBS containing 0.05% Tween-20) and blocking with PBS containing 1% dry fat-free milk (Bio-Rad Inc., Hercules, Calif.). Virus lysates were added to the wells and incubated at 37° C. for 1 h. […] Reactions were terminated by addition of 1N H2SO4. […] Recombinant protein p24 (US Biological, Swampscott, Mass.) was included for establishing standard dose response curve.

The subject of another series is MT-2 cells. Particulars: read-out: Cytotoxicity CC50 (μM) (M ± SD). As to the method:
Detection of in vitro cytotoxicity. The in vitro cytotoxicity of compounds for MT-2 cells was measured by a colorimetric method using XTT tetrazolium dye as previously described (21). Briefly, 100 μl of a compound at a graded concentration was added to equal volume of cells (5×10^5/ml) in a well of 96-well plates. After incubation at 37° C. for 4 days, XTT (1 mg/ml; […]; PolySciences, Inc., Warrington, Pa.) was added. Four hours later, the soluble intracellular formazan was quantitated colorimetrically at 450 nm with a reference at 570 nm.

Broadly, the CC50 is the concentration that lowers cell viability or growth by half. Turning to `O=C(O)c1cccc(-c2ccc(/C=C3\SC(=S)N(Cc4ccccc4)C3=O)o2)c1` [NB182], the “SI (CC50/EC50)” value in the series with HIV-1 IIIB was more than 457.14. Moreover, the half-maximal cytotoxic concentration (CC50) in the series on MT-2 cells was more than 379 µM.

Regarding `O=C(O)c1cc(-c2ccc(/C=C3\SC(=O)N(Cc4ccccc4)C3=O)o2)ccc1Cl` [NB192], the half-maximal cytotoxic concentration (CC50) in the series on MT-2 cells was more than 363 µM.

For `O=C(O)c1cc(-c2ccc(/C=C3\SC(=S)N(Cc4ccccc4)C3=O)o2)ccc1Cl` [NB217], the “SI (CC50/EC50)” value in the series on HIV-1 IIIB is 163.2. Moreover, the CC50 with MT-2 cells stood at 166 ± 17.7 µM.
